{"source": "PubChem BioAssay AID504761 (Drosophila RNAi Screening Center, 2011)", "aim": "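Insect host genes that dengue virus relies on to spread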 (primary screen)", "system": "D.Mel-2 cells from Drosophila", "reagent": "long dsRNA against Drosophila genes", "treatment": "infection with dengue virus type 2; dose and infection time not stated", "detection": "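Per well on two replicate plates, imaging gave the percent of cells positive for viral envelope protein, ranked by infection, and a nuclear count of cells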", "direction": "infection score: higher = more virus-infected cells; cell count: higher = more cells in the well", "rule for the call": "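Low infection ranks in the two replicates (chance level up to 0.065) followed by a retest with a 1.5-fold or larger significant decrease, p below 0.05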", "meaning of the calls": "active = confirmed: knock-down lowers infection; inactive = not picked or not confirmed", "note": "The screen tested about 22,000 reagents; below is an unselected part of those with a known target gene and a result. Of all reagents, 116 (0.52%) are marked active. 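Calls depend on retest data that are not deposited; infection was ranked per plate without normalising between plates; the unit of the infection score is not given.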 Raw values vary from plate to plate and are shown uncorrected. The numbers tell different reagents against one gene apart. A plus sign joins genes that one reagent is predicted to hit. The record does not give: the amount of reagent, the time to read-out."}
{"target gene": "CheA7a", "dsRNA no.": 1, "infection score, replicate 1": 1.49, "infection score, replicate 2": 3.65, "cell count, replicate 1": 6117, "cell count, replicate 2": 6143, "activity call": "inactive"}
{"target gene": "caup", "dsRNA no.": 1, "infection score, replicate 1": 2.76, "infection score, replicate 2": 5.95, "cell count, replicate 1": 6276, "cell count, replicate 2": 6940, "activity call": "inactive"}
{"target gene": "scro", "dsRNA no.": 1, "infection score, replicate 2": 1.56, "cell count, replicate 1": 283, "cell count, replicate 2": 641, "activity call": "inactive"}
{"target gene": "l(1)G0320", "dsRNA no.": 1, "infection score, replicate 1": 3.39, "infection score, replicate 2": 7.39, "cell count, replicate 1": 6988, "cell count, replicate 2": 6669, "activity call": "inactive"}
{"target gene": "CG4982", "dsRNA no.": 1, "infection score, replicate 1": 7.34, "infection score, replicate 2": 1.79, "cell count, replicate 1": 6557, "cell count, replicate 2": 6483, "activity call": "inactive"}
{"target gene": "CG11726", "dsRNA no.": 1, "infection score, replicate 1": 3.67, "infection score, replicate 2": 0.39, "cell count, replicate 1": 5644, "cell count, replicate 2": 6175, "activity call": "inactive"}
{"target gene": "CG31249", "dsRNA no.": 1, "infection score, replicate 1": 2.17, "infection score, replicate 2": 0.44, "cell count, replicate 1": 6207, "cell count, replicate 2": 6434, "activity call": "inactive"}
{"target gene": "CG30020", "dsRNA no.": 1, "infection score, replicate 1": 2.42, "infection score, replicate 2": 2.08, "cell count, replicate 1": 5939, "cell count, replicate 2": 5916, "activity call": "inactive"}
{"target gene": "CG30020", "dsRNA no.": 2, "infection score, replicate 1": 2.74, "infection score, replicate 2": 6.47, "cell count, replicate 1": 6360, "cell count, replicate 2": 6384, "activity call": "inactive"}
{"target gene": "CG1638", "dsRNA no.": 1, "infection score, replicate 1": 2.63, "infection score, replicate 2": 4.19, "cell count, replicate 1": 7059, "cell count, replicate 2": 6160, "activity call": "inactive"}
{"target gene": "CG1638", "dsRNA no.": 2, "infection score, replicate 1": 12.4, "infection score, replicate 2": 10.2, "cell count, replicate 1": 6259, "cell count, replicate 2": 6124, "activity call": "inactive"}
{"target gene": "CG14826", "dsRNA no.": 1, "infection score, replicate 1": 2.4, "infection score, replicate 2": 2.19, "cell count, replicate 1": 6429, "cell count, replicate 2": 6176, "activity call": "inactive"}
{"target gene": "sub", "dsRNA no.": 1, "infection score, replicate 1": 11.9, "infection score, replicate 2": 7.6, "cell count, replicate 1": 3942, "cell count, replicate 2": 1395, "activity call": "inactive"}
{"target gene": "Ugt36A1 + CG15418", "dsRNA no.": 1, "infection score, replicate 1": 1.36, "infection score, replicate 2": 1.28, "cell count, replicate 1": 6257, "cell count, replicate 2": 6495, "activity call": "inactive"}
{"target gene": "Ugt36A1 + CG15418", "dsRNA no.": 2, "infection score, replicate 1": 2.39, "infection score, replicate 2": 2.23, "cell count, replicate 1": 6114, "cell count, replicate 2": 6323, "activity call": "inactive"}
{"target gene": "CG4669", "dsRNA no.": 1, "infection score, replicate 1": 5.75, "infection score, replicate 2": 6.98, "cell count, replicate 1": 7014, "cell count, replicate 2": 6416, "activity call": "inactive"}
{"target gene": "PAPLA1", "dsRNA no.": 1, "infection score, replicate 1": 5.37, "infection score, replicate 2": 3.75, "cell count, replicate 1": 6500, "cell count, replicate 2": 6346, "activity call": "inactive"}
{"target gene": "PAPLA1", "dsRNA no.": 2, "infection score, replicate 1": 2.37, "infection score, replicate 2": 4.77, "cell count, replicate 1": 5811, "cell count, replicate 2": 6095, "activity call": "inactive"}
{"target gene": "CG3632", "dsRNA no.": 1, "infection score, replicate 1": 2.25, "infection score, replicate 2": 1.47, "cell count, replicate 1": 6455, "cell count, replicate 2": 6400, "activity call": "inactive"}
{"target gene": "CG31787", "dsRNA no.": 1, "infection score, replicate 1": 0.19, "infection score, replicate 2": 0.15, "cell count, replicate 1": 6440, "cell count, replicate 2": 6529, "activity call": "inactive"}
{"target gene": "mRpS21", "dsRNA no.": 1, "infection score, replicate 1": 9.41, "infection score, replicate 2": 2.65, "cell count, replicate 1": 4886, "cell count, replicate 2": 4345, "activity call": "inactive"}
{"target gene": "mRpS21", "dsRNA no.": 2, "infection score, replicate 1": 8.06, "infection score, replicate 2": 10.3, "cell count, replicate 1": 5584, "cell count, replicate 2": 5004, "activity call": "inactive"}
{"target gene": "mRpS21", "dsRNA no.": 3, "infection score, replicate 1": 13.6, "infection score, replicate 2": 4.66, "cell count, replicate 1": 5642, "cell count, replicate 2": 6519, "activity call": "inactive"}
{"target gene": "Alh", "dsRNA no.": 1, "infection score, replicate 1": 0.96, "infection score, replicate 2": 0.64, "cell count, replicate 1": 3525, "cell count, replicate 2": 3427, "activity call": "inactive"}
{"target gene": "Alh", "dsRNA no.": 2, "infection score, replicate 1": 4.1, "infection score, replicate 2": 13.2, "cell count, replicate 1": 6665, "cell count, replicate 2": 4769, "activity call": "inactive"}
{"target gene": "Alh", "dsRNA no.": 3, "infection score, replicate 1": 17.6, "infection score, replicate 2": 5.04, "cell count, replicate 1": 5015, "cell count, replicate 2": 5954, "activity call": "inactive"}
{"target gene": "Alh", "dsRNA no.": 4, "infection score, replicate 1": 16.4, "infection score, replicate 2": 14.8, "cell count, replicate 1": 5837, "cell count, replicate 2": 3847, "activity call": "inactive"}
